The target of the experiment is T1, human NXF1(117-619)-NXT1 heterodimer, wild type (human, UniProt Q9UBU9 117-619; Q9UKK6 1-140).
T1 construct: human NXF1 (mRNA export receptor), residues 117-619; human NXT1, coexpressed with NXF1; also called NXF1-NXT1; mRNA export receptor; source: E. coli Rosetta, coexpressed, purified (details in SI Appendix)
T1 sequence (looked up) 1: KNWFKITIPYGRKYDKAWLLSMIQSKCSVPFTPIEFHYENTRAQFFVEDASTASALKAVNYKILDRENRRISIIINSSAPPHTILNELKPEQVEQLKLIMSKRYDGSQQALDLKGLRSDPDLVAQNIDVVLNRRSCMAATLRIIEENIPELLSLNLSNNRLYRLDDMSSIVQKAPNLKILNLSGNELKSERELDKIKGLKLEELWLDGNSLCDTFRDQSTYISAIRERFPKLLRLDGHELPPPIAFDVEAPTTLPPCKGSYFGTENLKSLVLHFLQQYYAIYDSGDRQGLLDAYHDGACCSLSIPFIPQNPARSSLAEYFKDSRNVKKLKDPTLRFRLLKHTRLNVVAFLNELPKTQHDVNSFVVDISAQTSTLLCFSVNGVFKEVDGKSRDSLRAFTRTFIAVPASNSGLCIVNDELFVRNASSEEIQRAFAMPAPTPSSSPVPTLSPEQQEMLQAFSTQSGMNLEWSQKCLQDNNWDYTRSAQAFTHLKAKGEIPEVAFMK
T1 sequence (looked up) 2: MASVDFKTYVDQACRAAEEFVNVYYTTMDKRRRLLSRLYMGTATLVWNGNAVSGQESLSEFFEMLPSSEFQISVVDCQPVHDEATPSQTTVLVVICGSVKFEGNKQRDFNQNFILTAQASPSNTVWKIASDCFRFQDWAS
The note with it: both partners purified.

B1: GST-tagged SARS-CoV-2 Nsp1 R99A (natural protein)
chain: not shown
For B1, the binding result was “binds”.

The record behind these values is paper PMC11145185, “Inhibition of mRNA nuclear export promotes SARS-CoV-2 pathogenesis” (Proceedings of the National Academy of Sciences of the …, 2024).
